Test results reported in PMC4038613, “A New Class of Multimerization Selective Inhibitors of HIV-1 Integrase” (PLoS Pathogens, 2014).

Target: A128T IN (Human immunodeficiency virus type 1 group M subtype B, UniProt P12497, A1275T)
Format: biochemical, HIV-1

Structure (SMILES): Cc1nc(-c2nc3ccc(Cl)cc3[nH]2)c(C)c(-c2ccccc2)c1C(OC(C)(C)C)C(=O)O (stereo not shown) [KF116]
- aberrant IN multimerization of A128T IN in vitro: potently promoted aberrant IN multimerization of A128T IN
